In ChEMBL document CHEMBL1158369, “Hansch analysis of substituted benzoic acid benzylidene/furan-2-yl-methylene hydrazides as antimicrobial agents” (Eur J Med Chem, 2009):

Experiments:
Format in all cases: functional
Aspergillus niger = assay: Antifungal activity against Aspergillus niger after 7 days by tube dilution method
In short: (§1)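 Twofold serial dilutions of test and standard compounds in Sabouraud dextrose broth (I.P.); C. albicans incubated 37 °C for 48 h, A. niger 25 °C for 7 d. Growth read visually; MIC is lowest concentration without visible growth.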

Staphylococcus aureus = assay: Antibacterial activity against Staphylococcus aureus after 24 hrs by tube dilution method
In short: (§2)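 Twofold serial dilutions of test and standard compounds in double strength nutrient broth (I.P.); tubes incubated at 37 °C for 24 h. Growth judged visually; MIC taken as lowest concentration with no visible turbidity.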

Candida albicans = assay: Antifungal activity against Candida albicans after 48 hrs by tube dilution method; in short: as §1
Escherichia coli = assay: Antibacterial activity against Escherichia coli after 24 hrs by tube dilution method; in short: as §2
Bacillus subtilis = assay: Antibacterial activity against Bacillus subtilis after 24 hrs by tube dilution method; in short: as §2

Question: For `O=C(N/N=C/c1cccc([N+](=O)[O-])c1)c1cc([N+](=O)[O-])cc([N+](=O)[O-])c1`, which -logMIC (Aspergillus niger) is on record?
Answer: 1.76

Question: And the -logMIC (Staphylococcus aureus)?
Answer: 2.34

Question: And the -logMIC (Candida albicans)?
Answer: 1.76

Question: What about the -logMIC (Escherichia coli) of the same compound?
Answer: 2.63

Question: And the -logMIC (Bacillus subtilis)?
Answer: 2.48
